Results of unrelated studies side by side (data: NIAID ChemDB).

Shared fields: growth or infection tests; species: HIV-1

ECn: concentration that inhibits the pathogen or its effect by n%. Conditions beyond the fields shown may differ between rows. Blank or dashed fields: not listed here. a–b is a range or a potency band.

smiles	method	conditions	endpoint	strain	changes	cell line	result
Cc1cc2nc(c1)CNCCNCCNCCNC2.[Cl][Mn][Cl]	luminescence		EC50	NL4-3		TZM-bl	3 µM
Cc1ccc2c(C)cccc2c1-n1c(C)nnc1SCC(=O)Nc1ccccc1Br			EC50		Y188L	HeLa	0.331 µM
CCCCOCCOc1ccc(-c2ccc3c(c2)/C=C(/C(=O)Nc2ccc([S@@](=O)Cc4cncn4CCC)cc2)CCCN3CC(C)C)cc1	p24		EC50	R5-01 R5 clinical isolate		PBMC	0.00017 µM
Cc1cc(-n2c(C)nnc2SCC(=O)Nc2ccccc2Br)c2ccccc2c1C			EC50		Y188L	HeLa	0.098 µM
O=C1c2c(O)cc(O)cc2O[C@H](c2ccc(O)c(O)c2)[C@H]1O	MTT		EC50			C8166	13.8 µg/mL
C=C(C)[C@@H]1CC[C@]2(C(=O)N3CCN(C)CC3)CC[C@]3(C)[C@H](CC[C@@H]4[C@@]5(C)CC=C(c6ccc(C(=O)O)cc6)C(C)(C)[C@@H]5CC[C@]43C)[C@@H]12	luciferase		EC50	NL4-3	Gag P373S	MT-2	0.061 µM
Nc1ccn([C@H]2C[C@@H](OCP(=O)(O)O)CO2)c(=O)n1	cytopathic effect		EC50	IIIB		MT-4	>321 µM
Cc1cn([C@]2(c3ccccc3)C[C@@H]2COCP(=O)(OC(C)C)OC(C)C)c(=O)[nH]c1=O	cytopathic effect		EC50			MT-4	>100 µM
Cn1ncc2c1S(=O)(=O)N(CCc1ccccc1)C(=O)N2CCc1ccc(Br)cc1	MTT		EC50	IIIB		MT-4	>6.7 µM
Cc1cn([C@H]2C[C@H](N=[N+]=[N-])[C@@H](CO)O2)c(=O)[nH]c1=O	p24		EC50	LAV		CEM	0.007–0.1 µM
CN(C)c1ccc(-n2c(SCC(=O)Nc3ccc(S(N)(=O)=O)cc3Cl)nnc2C(F)(F)F)c2ccccc12			EC50			HeLa	0.002 µM
Cc1cn([C@H]2C[C@H](N=[N+]=[N-])[C@@H](CO)O2)c(=O)[nH]c1=O	p24		EC50			CEM + CEM-SS	0.005 µM
[Cl][Cu][Cl].c1cc2nc(c1)CNCCNCCNCCNC2	luminescence		EC50	NL4-3		TZM-bl	67.7 µM
NC(=O)c1nn([C@@H]2O[C@H](CO)[C@@H](O)[C@H]2O)cc1[N+](=O)[O-]	syncytia		EC50	IIIB		C8166	<25.4 µM
COc1ccc(C[C@H](NC(=O)c2cccc(O)c2C)[C@H](O)C(=O)N2CSC(C)(C)[C@H]2C(=O)NCc2ccccc2C)cc1	RT activity		EC50	1026-40 PI-resistant	PR-L10I M46I I54V L63P A71V V82A L90M	PBMC	0.099 µM
C[C@H]1[C@H](C)Oc2c3c(c4c(-c5ccccc5)cc(=O)oc4c2[C@H]1O)OC(C)(C)C=C3	cytopathic effect / XTT		EC50	RF		CEM + CEM-SS	~0.4 µM
Nc1ncnc2c1ncn2CCOCP(=O)(O)O	cytopathic effect		EC50	IIIB		MT-4	5.5 µM
Cc1cc(C)cc(S(=O)(=O)c2c(C(N)=O)[nH]c3ccc(Cl)cc23)c1	cytopathic effect / MTT		EC50		RT-K103N Y181C	MT-4	0.8 µM
Nc1nc2c(ccn2C[C@H](CF)OCP(=O)(O)O)c(=O)[nH]1	luciferase		EC50	BaL		PBMC	>100 µM
Cc1cn([C@H]2C[C@H](N=[N+]=[N-])[C@@H](CO)O2)c(=O)[nH]c1=O	MTT		EC50	IIIB		MT-4	0.0007 µM
CC(C)CN(C[C@@H](O)[C@H](Cc1ccccc1)NC(=O)O[C@H]1CCOC1)S(=O)(=O)c1ccc(N)cc1	RT activity		EC50	1002-60 PI-resistant	PR-L10I M46I I54V L63P V82F L90M	PBMC	0.194 µM
Nc1nc2c(c(F)cn2C[C@H](CF)OCP(=O)(O)O)c(=O)[nH]1	luciferase		EC50	BaL		PBMC	>100 µM
O=c1[nH]c(=O)n([C@H]2C=C[C@@H](CO)O2)cc1C#CCOC1CCCCO1	RT activity		EC50	LAI		CEM + CEM-SS	>50 µM
CN(C)Cc1nc(C(=O)NCc2ccc(F)cc2)c(O)c(=O)[nH]1	p24	50% human serum	EC95			MT-4	>1 µM
O=c1[nH]c(=O)n([C@H]2C=C[C@@H](CO)O2)cc1C#CCCO	RT activity		EC50	LAI		CEM + CEM-SS	120 µM
C=C(C)[C@@H]1CC[C@]2(C(=O)Nc3ccccn3)CC[C@]3(C)[C@H](CC[C@@H]4[C@@]5(C)CC=C(c6ccc(C(=O)O)cc6)C(C)(C)[C@@H]5CC[C@]43C)[C@@H]12	luciferase		EC50	NL4-3	Gag P373S	MT-2	<0.1 µM
Cc1c(Sc2ccccc2)n(COCCO)c(=O)[nH]c1=O	cytopathic effect		EC50			MT-4	7 µM
[Cl][Mn][Cl].c1cc2c3nc1CNCCNCCNCCNC3CCC2	luminescence		EC50	NL4-3		TZM-bl	0.52 µM
C[C@H](Cn1cnc2c(N)ncnc21)OCP(=O)(O)O	cytopathic effect		EC50	IIIB		MT-4	3.35 µM
CCC(C1=C(O)CC2(CCCCC2)OC1=O)c1ccccc1	p24		EC50	IIIB		MT-4	1 µM
Cc1cn([C@H]2C[C@H](N=[N+]=[N-])[C@@H](CO)O2)c(=O)[nH]c1=O	p24 / ELISA		EC50	IIIB		C8166	0.03445 µM
Nc1nc(=O)n([C@@H]2CS[C@H](CO)O2)cc1F	RT activity		EC50	LAI		PBMC	0.03 µM
[Cl][Cu][Cl].c1cc2c3nc1CNCCNCCNCCNC3CCC2	luminescence		EC50	NL4-3		TZM-bl	1.8 µM
O=c1[nH]cnc2c1ncn2[C@H]1CC[C@@H](CO)O1	cytopathic effect / MTT		EC50	IIIB		MT-4	0.46 µg/mL
Nc1ncnc2c1ncn2[C@H]1C[C@@H](OCP(=O)(O)O)CO1	cytopathic effect		EC50	IIIB		MT-4	2.53 µM
CCCCCOC(=O)C[C@H](NP(=O)(CO[C@@H](CF)Cn1ccc2c(=O)[nH]c(N)nc21)N[C@@H](CC(=O)OCCCCC)C(=O)OCCCCC)C(=O)OCCCCC	luciferase		EC50	BaL		TZM-bl	2.62 µM
COc1ccc(CN[C@@H](C(=O)N[C@H]2c3ccccc3C[C@H]2O)[C@H](O)[C@H](Cc2ccccc2)NC(=O)[C@@H](NC(=O)OCc2ccccc2)C(C)(C)C)cc1	p24		EC50	D747		Primary monocytes + Monocyte	0.071 µM
Nc1nc2c(c(F)cn2C[C@@H](CF)OCP(=O)(O)O)c(=O)[nH]1	luciferase		EC50	BaL		TZM-bl	>100 µM
O=c1[nH]c(=O)n([C@H]2C=C[C@@H](CO)O2)cc1C#CCO	RT activity		EC50	LAI		CEM + CEM-SS	>100 µM
Cc1ccccc1CNC(=O)[C@H]1N(C(=O)[C@@H](O)[C@H](Cc2ccccc2)NC(=O)c2cccc(O)c2C)CSC1(C)C	RT activity		EC50	052-52 PI-resistant	PR-L10R M46I L63P A71V V82T I84V	PBMC	0.017 µM
Cc1ccc(S(=O)(=O)c2c(C(=O)NNCCO)[nH]c3ccc(Cl)cc23)c(C)c1	cytopathic effect / MTT		EC50		RT-Y181C	MT-4	14 µM
C/C=C(/C)C(=O)O[C@H]1c2cc3c(c4c2C2(CO4)C(=O)C(OC)=C(OC)C=C2C[C@@H](C)[C@H]1C)OCO3	MTT		EC50			C8166	17.8 µg/mL
Cc1cccc(C)c1OCC(=O)N[C@@H](Cc1ccccc1)[C@@H](O)C[C@H](Cc1ccccc1)NC(=O)[C@H](C(C)C)N1CCCNC1=O	RT activity		EC50	1026-40 PI-resistant	PR-L10I M46I I54V L63P A71V V82A L90M	PBMC	0.398 µM
Cc1ccc2cc(Cl)cnc2c1-n1c(C)nnc1SCC(=O)Nc1ccc(S(N)(=O)=O)cc1Cl			EC50		Y188L	HeLa	0.1 µM
C1=NCCNCCNCCN=Cc2cccc1n2.[Cl][Mn][Cl]	luminescence		EC50	NL4-3		TZM-bl	17 µM
Cc1cn([C@]2(c3ccccc3)C[C@@H]2COCP(=O)(O)O)c(=O)[nH]c1=O	cytopathic effect		EC50			MT-4	>100 µM
Cc1cccc(S(=O)(=O)c2c(C(=O)NNCCO)[nH]c3ccc(Cl)cc23)c1	cytopathic effect / MTT		EC50	IIIB		MT-4	0.007 µM
Cc1cn([C@H]2C[C@H](N=[N+]=[N-])[C@@H](CO)O2)c(=O)[nH]c1=O	plaque count		EC50	HXB2D		HT4LACZ-1 + HT4 LacZ-1	0.02 µM
CC(C)(C)NC(=O)[C@@H]1C[C@@H]2CCCC[C@@H]2CN1C[C@@H](O)[C@H](Cc1ccccc1)NC(=O)[C@H](CC(N)=O)NC(=O)c1ccc2ccccc2n1	cytopathic effect / MTT		EC50	LAV/LAI		MT-2	0.015 µM
COC1=C(OC)C(=O)C23C(=C1)C[C@@H](C)[C@]2(C)[C@@H](O)c1cc2c(c(OC)c13)OCO2	MTT		EC50			C8166	79.5 µg/mL
CNC(=O)CCCCC=C(c1cc(OC)c(OC)c(C(=O)OC)c1)c1cc(OC)c(OC)c(C(=O)OC)c1	p24		EC50			CEM + CEM-SS	2.26 µM
O=C(NCc1ccc(F)cc1)c1nc(-c2cccs2)[nH]c(=O)c1O	p24	10% FBS	EC95			MT-4	>10 µM
CCCCCOC(=O)C[C@H](NP(=O)(CO[C@@H](CF)Cn1ccc2c(=O)[nH]c(N)nc21)Oc1ccccc1)C(=O)OCCCCC	luciferase		EC50	BaL		PBMC	>20 µM
CC(C)(C)NC(=O)[C@@H]1C[C@@H]2CCCC[C@@H]2CN1C[C@@H](O)[C@H](Cc1ccccc1)NC(=O)[C@H](CC(N)=O)NC(=O)c1ccc2ccccc2n1	p24		EC95	NL4-3	PR-L10R M46I L63P 184V	MT-4	0.1 µM
Cc1cn([C@@H]2O[C@H](CO[Si](C)(C)C(C)(C)C)C3(OS(=O)(=O)C=C3N)[C@H]2O[Si](C)(C)C(C)(C)C)c(=O)n(C)c1=O	cytopathic effect		EC50	IIIB		C8166	0.045 µM
NCC#Cc1cn([C@H]2C=C[C@@H](CO)O2)c(=O)[nH]c1=O	RT activity		EC50	IIIB		MT-4	>100 µM
Cc1cn([C@H]2C=C[C@@H](CO)O2)c(=O)[nH]c1=O	p24		EC50	LAV		CEM	0.33 µM
Cc1ccnc2c1NC(=O)c1cccnc1N2C1CC1			EC50		RT-D67N K70R T215Y K219Q A98G	MT-4	<0.4 µM
Cn1ncc2c1S(=O)(=O)N(CCc1ccccc1)C(=O)N2CCc1ccccc1C#N	MTT		EC50	IIIB		MT-4	>265.4 µM
Cc1cn([C@@H]2OC[C@H](OCP(=O)(O)O)[C@H]2O)c(=O)[nH]c1=O	cytopathic effect		EC50	IIIB		MT-4	>328 µM
c1cc(CN2CCCNCCNCCCNCC2)ccc1CN1CCCNCCNCCCNCC1	MTT		EC50	NL4-3		MT-4	0.096 µM
Cc1ccc2c(C)ccnc2c1-n1c(C)nnc1SCC(=O)Nc1ccc(S(N)(=O)=O)cc1Cl			EC50			HeLa	0.0006 µM
CCC(Cc1ccccc1)c1cc(O)c(C(CC)c2ccccc2)c(=O)o1	p24		EC50	IIIB		MT-4	3 µM
COc1c(C)c2c(c(O)c1C/C=C(\C)CCC(=O)O)C(=O)OC2	p24		EC50	IIIB		PBMC	0.11 µM
CC(C)(C)NC(=O)[C@@H]1CCCN1C(=O)[C@@H](O)[C@H](Cc1ccccc1)NC(=O)[C@H](CC(N)=O)NC(=O)COc1cccc2ccccc12	cytopathic effect / MTT		EC50	IIIB		MT-4	0.09 µg/mL
O=C(NCc1ccc(F)cc1)c1nc[nH]c(=O)c1O	p24	10% FBS	EC95			MT-4	>10 µM
CC(C)OP(=O)(COC[C@H]1C[C@@]1(c1ccccc1)n1cnc2c(N)ncnc21)OC(C)C	cytopathic effect		EC50			MT-4	>100 µM
[Cl][Cu][Cl].c1c2c3nc4c1CCC[C@@H]4NCCNCCNCCN[C@H]3CCC2	luminescence		EC50	NL4-3		TZM-bl	0.4 µM
CC(C)OC(=O)OCOP(=O)(CO[C@H](C)Cn1cnc2c(N)ncnc21)OCOC(=O)OC(C)C	luciferase		EC50	NL4-3		PBMC	0.0023 µM
NC(=O)c1nn([C@@H]2O[C@H](CO)[C@@H](O)[C@H]2O)cc1N	syncytia		EC90	IIIB		C8166	>1840 µM
Cc1ccccc1CNC(=O)[C@H]1N(C(=O)[C@@H](O)[C@H](Cc2ccc(OC(C)C)cc2)NC(=O)c2cccc(O)c2C)CSC1(C)C	cytopathic effect / XTT	15% FBS	EC50	IIIB		CEM	0.0079 µM
Oc1cc(O)c2c(c1)O[C@H](c1ccc(O)c(O)c1)[C@H](O)C2	MTT		EC50			C8166	45 µg/mL
Cc1ccc2c(-n3c(C)nnc3SCC(=O)Nc3ccccc3Br)ccc(C)c2c1			EC50		Y188L	HeLa	0.151 µM
CCOCn1c(Cc2cc(C)cc(C)c2)c(CC)c(=O)[nH]c1=O	cytopathic effect / MTT		EC50	IIIB		MT-4	0.00046 µg/mL

A second listing of 5 rows from above:

{"smiles": "C[C@H]1[C@H](C)Oc2c3c(c4c(-c5ccccc5)cc(=O)oc4c2[C@H]1O)OC(C)(C)C=C3", "method": "cytopathic effect / XTT", "endpoint": "EC50", "strain": "RF", "cell line": "CEM + CEM-SS", "result": "~0.4 µM"}
{"smiles": "Nc1nc2c(c(F)cn2C[C@H](CF)OCP(=O)(O)O)c(=O)[nH]1", "method": "luciferase", "endpoint": "EC50", "strain": "BaL", "cell line": "PBMC", "result": ">100 µM"}
{"smiles": "O=C(NCc1ccc(F)cc1)c1nc(-c2cccs2)[nH]c(=O)c1O", "method": "p24", "conditions": "10% FBS", "endpoint": "EC95", "cell line": "MT-4", "result": ">10 µM"}
{"smiles": "C/C=C(/C)C(=O)O[C@H]1c2cc3c(c4c2C2(CO4)C(=O)C(OC)=C(OC)C=C2C[C@@H](C)[C@H]1C)OCO3", "method": "MTT", "endpoint": "EC50", "cell line": "C8166", "result": "17.8 µg/mL"}
{"smiles": "COC1=C(OC)C(=O)C23C(=C1)C[C@@H](C)[C@]2(C)[C@@H](O)c1cc2c(c(OC)c13)OCO2", "method": "MTT", "endpoint": "EC50", "cell line": "C8166", "result": "79.5 µg/mL"}